Measured values from several laboratories, pooled; numbers as filed in NIAID ChemDB.

All rows: growth or infection tests; agent: Mycobacterium tuberculosis

A number after MIC or MFC names an inhibition level or a share of isolates. Fold resistance has wild type as its base. MIC bound comes from a single tested concentration. Neighbouring rows are from separate reports. ECn: concentration that inhibits the pathogen or its effect by n%. Percent inhibition refers to the dose given; in toxicity tests it is the harm to the cells. a–b is a range or a potency band. Blank or dashed fields: not listed here.

smiles	mutations	measure	strain	cell line	tested at	method	value
CC(=O)c1csc(C2=CC(=O)c3ccccc3C2=O)c1	-	MIC90	H37Rv	-	-	resazurin	>6.25 µg/mL
CCc1cn2c(nc1=O)O[C@@H]1[C@H](F)[C@H]2O[C@@H]1CO	-	MIC25	H37Ra	-	-	resazurin	100 µg/mL
C=CCS/C(N)=N/NC(=O)c1ccccc1	-	MIC	H37Rv	-	-	-	>100 µg/mL
NC(=O)c1ccc[n+]([O-])c1	-	MIC bound	H37Rv	-	-	BACTEC	>12.5 µg/mL
Nc1ncc(Cc2ccc(OCc3ccccc3)cc2)c(N)n1	-	MIC	H37Rv	-	-	-	26.1 µM
NC(=S)NNC(=O)c1ccc(F)cc1	-	MIC	H37Rv	-	-	-	>100 µg/mL
COc1cc(C(O)(CCN(C)C)C(c2cc(-c3ccc(F)cc3)cnc2OC)c2cccc(OC)c2F)cc(OC)n1	-	MIC90	H37Rv	-	-	resazurin	4.3 µM
COc1ccc(N=C2C(=Nc3ccc(OC)cc3)N(S(=O)(=O)c3ccc(C)cc3)C(=S)N2c2ccccc2)cc1	-	MIC bound	H37Rv	-	-	BACTEC	>12.5 µg/mL
CNc1c(C)c2c3c4c1C(=O)C(=C(/C=N/N1CCN(C)CC1)C4O)NC(=O)/C(C)=C\C=C\[C@H](C)[C@H](O)[C@@H](C)[C@@H](O)[C@@H](C)[C@H](OC(C)=O)[C@H](C)[C@@H](OC)/C=C/O[C@@](C)(O2)C3=O	-	MIC90	-	-	-	low oxygen	>19.1 µM
Cc1ccc(C(=O)/C=C/c2ccc(C(=O)N3C/C(=C\c4ccccc4)C(=O)/C(=C/c4ccccc4)C3)cc2)cc1	-	EC50	H37Rv	-	-	-	>6.25 µg/mL
COc1nc2ccc(C)cc2cc1C1C(Cl)C(=O)N1NC(=O)c1ccc(-n2cccc2)cc1	-	MIC	H37Rv	-	-	resazurin	6.25 µg/mL
C[C@H]1COc2c(N3CCN(C)CC3)c(F)cc3c(=O)c(C(=O)O)cn1c23	INH resistant	MIC	Clinical isolate BRF 26	-	-	resazurin	0.25 µg/mL
O=c1c2cc(O)c(O)cc2oc2cc(O)cc(O)c12	-	MIC	-	-	-	-	40 µg/mL
CO[C@H]1/C=C/O[C@@]2(C)Oc3c(C)c(O)c4c(O)c(c(/C=N/N5CCN(C)CC5)c(O)c4c3C2=O)NC(=O)/C(C)=C\C=C\[C@H](C)[C@H](O)[C@@H](C)[C@@H](O)[C@@H](C)[C@H](OC(C)=O)[C@@H]1C	-	MIC50	16 strains (rifampicin-susceptible)	-	-	-	0.1 µg/mL
CO[C@H]1/C=C/O[C@@]2(C)Oc3c(C)c(OC(C)=O)c4c(c3C2=O)C(=O)C=C(NC(=O)/C(C)=C\C=C\[C@H](C)[C@H](O)[C@@H](C)[C@@H](O)[C@@H](C)[C@H](OC(C)=O)[C@@H]1C)C4=O	-	MIC	PZA-R	-	-	-	0.03 µg/mL
CC1=C(C)C(=O)c2ccccc2C1=O	-	MIC90	H37Rv	-	-	resazurin	>6.25 µg/mL
COc1nc2ccc(Br)cc2cc1/C=N/NC(=O)c1ccncc1	-	MIC	H37Rv	-	-	resazurin	6.25 µg/mL
CCc1cn(C2OC(CO)C(Br)C2F)c(=O)[nH]c1=O	-	MIC56	H37Ra	-	-	resazurin	10 µg/mL
O=C(/C=C/C(=O)N1C/C(=C\c2ccccc2)C(=O)/C(=C/c2ccccc2)C1)Nc1ccc(Cl)c(Cl)c1	-	EC50	H37Rv	-	-	-	<6.25 µg/mL
Cc1ccc2nc(SCC(=O)N/N=C/c3ccccc3[N+](=O)[O-])n(-c3ccccc3)c(=O)c2c1	-	MIC	H37Rv	-	-	-	>6.25 µg/mL
CC(=O)c1c(C2=CC(=O)c3ccccc3C2=O)[nH]c2ccccc12	-	MIC90	H37Rv	-	-	resazurin	>6.25 µg/mL
CC(=N\NC(=O)c1ccc([N+](=O)[O-])o1)/C(Cl)=N/Nc1ccc(F)cc1	-	MIC	RCMB 010126	-	-	-	31.25 µg/mL
COc1cc2c(c3oc(=O)ccc13)C=CC(C)(C)O2	-	MIC	H37Rv	-	-	broth dilution / resazurin	1940 µM
COc1ccc(N/N=C(Cl)/C(C)=N/NC(=O)c2ccc([N+](=O)[O-])o2)cc1	-	MIC	RCMB 010126	-	-	-	62.5 µg/mL
O=C(/C=C/C(=O)N1C/C(=C\c2ccccc2)C(=O)/C(=C/c2ccccc2)C1)Nc1ccc(Cl)cc1	-	inhibition	H37Rv	-	6.25 µg/mL	-	0%
O=[N+]([O-])c1ccc2nc3ccccc3[n+]([O-])c2c1	-	inhibition	H37Rv	-	12.5 µg/mL	BACTEC	99%
COc1nc2ccccc2cc1/C=N/NC(=O)c1ccncc1	-	MIC	H37Rv	-	-	resazurin	6.25 µg/mL
O=C(N/N=C/c1ccc(Cl)c(Cl)c1)c1ccncc1	-	MIC	H37Rv	VERO	-	-	0.1 µg/mL
CO[C@H]1/C=C/O[C@@]2(C)Oc3c(C)c(O)c4c(O)c(c(/C=N/N5CCN(C)CC5)c(O)c4c3C2=O)NC(=O)/C(C)=C\C=C\[C@H](C)[C@H](O)[C@@H](C)[C@@H](O)[C@@H](C)[C@H](OC(C)=O)[C@@H]1C	-	MIC	H37Rv	-	-	resazurin	1 µg/mL
CC(=N\NC(=O)c1ccc([N+](=O)[O-])o1)/C(Cl)=N/Nc1ccc(C)cc1	-	MIC	RCMB 010126	-	-	-	125 µg/mL
Cc1ccc2nc(SCC(=O)N/N=C/C(=O)c3ccc([N+](=O)[O-])o3)n(-c3ccccc3)c(=O)c2c1	-	MIC	H37Rv	-	-	-	>6.25 µg/mL
COc1nc2ccc(Cl)cc2cc1C1C(Cl)C(=O)N1NC(=O)c1ccc(-n2cccc2)cc1	-	MIC	H37Rv	-	-	resazurin	6.25 µg/mL
COc1cccc2c1[n+]([O-])c1cccc(O)c1[n+]2[O-]	-	MIC	KM-R	-	-	-	0.8 µg/mL
COc1cc(CCC(=O)O)c2c(c1OC)C=CC(C)(C)O2	-	MIC	H37Rv	-	-	broth dilution / resazurin	210 µM
Cc1nn(-c2ccccc2)c(Cl)c1-c1nc(N)nc2c1c(C)nn2-c1cc(Cl)c(S(=O)(=O)O)cc1Cl	-	MIC	H37Rv	-	-	resazurin	3.25 µg/mL
COc1cc(/C=N/NC(=O)CSc2nc3ccc(C)cc3c(=O)n2-c2ccccc2)ccc1O	-	MIC	H37Rv	-	-	-	>6.25 µg/mL
CCCCCCOCCOCCCNC(=O)c1cccnc1	-	MIC bound	H37Rv	-	-	BACTEC	>12.5 µg/mL
C[C@H]1[C@H](C)Oc2c3c(c4c(-c5ccccc5)cc(=O)oc4c2[C@H]1O)OC(C)(C)C=C3	-	MIC	H37Rv	-	-	BACTEC	<12.5 µg/mL
CO[C@H]1/C=C/O[C@@]2(C)Oc3c(c4c(O)cc(c5nn(CCO)c(c3C)c45)=NC(=O)/C(C)=C\C=C\[C@H](C)[C@H](O)[C@@H](C)[C@@H](O)[C@@H](C)[C@H](OC(C)=O)[C@@H]1C)C2=O	-	MIC90	-	-	-	resazurin	>5.4 µM
COc1cc([C@](O)(CCN(C)C)[C@@H](c2cc(-c3ccc(Cl)cc3)cnc2OC)c2cccc(OC)c2F)cc(OC)n1	-	MIC90	H37Rv	-	-	resazurin	1.45 µM
Cc1c2cc(O)c(=O)cc-2oc2cc(O)c(O)cc12	-	MIC90	H37Rv	-	-	broth dilution	62 µg/mL
Cc1nn(-c2nc(-c3ccccc3)cs2)c(C)c1C	-	MIC bound	H37Rv	-	-	BACTEC	>12.5 µg/mL
CCCCC(CC)COc1ccc(Cc2cnc(N)nc2N)cc1OC	-	MIC	H37Rv	-	-	-	22.3 µM
CCc1cn(C2OC(CO)C(O)C2F)c(=O)[nH]c1=S	-	MIC60	H37Ra	-	-	resazurin	100 µg/mL
COc1cc(Cc2cnc(N)nc2N)ccc1OCCOc1ccccc1	-	MIC	H37Rv	-	-	-	65.5 µM
Cc1c(O)c(=O)ccn1[C@@H]1O[C@H](CO)[C@@H](O)[C@H]1O	-	MIC bound	H37Rv	-	-	BACTEC	>12.5 µg/mL
O=C1/C(=C/c2ccccc2)CN(C(=O)/C=C/c2ccc(Cl)cc2)C/C1=C\c1ccccc1	-	EC50	H37Rv	-	-	-	>6.25 µg/mL
c1ccc([Si]2(c3ccccc3)O[Si](c3ccccc3)(c3ccccc3)O[Si](c3ccccc3)(c3ccccc3)O2)cc1	-	MIC	H37Rv	-	-	BACTEC	≥128 µg/mL
COc1cc([C@@](O)(CCN(C)C)[C@H](c2cc(-c3ccc(OC(F)(F)F)cc3)cnc2OC)c2cccc(OC)c2F)cc(OC)n1	-	MIC90	H37Rv	-	-	resazurin	>10 µM
N/C(=N\NC(=O)c1ccc(Cl)cc1Cl)SCc1cccc(Cl)c1	-	MIC	H37Rv	-	-	-	>100 µg/mL
COc1cc(C(O)(CCN(C)C)C(c2cc(-c3cccc(C#N)c3)cnc2OC)c2cccc(OC)c2F)cc(OC)n1	-	MIC90	H37Rv	-	-	resazurin	6.2 µM
c1ccc(Nc2cc(Nc3ccccc3)ncn2)cc1	-	MIC90	mc4914 InhA overexpressing	-	-	resazurin	>500 µM
C=CCNc1c(C)c2c3c4c1C(=O)C(=C(/C=N/N1CCN(C)CC1)C4O)NC(=O)/C(C)=C\C=C\[C@H](C)[C@H](O)[C@@H](C)[C@@H](O)[C@@H](C)[C@H](OC(C)=O)[C@H](C)[C@@H](OC)/C=C/O[C@@](C)(O2)C3=O	-	MIC90	-	-	-	resazurin	>4.6 µM
COc1cc(C(O)(CCN(C)C)C(c2cc(-c3ccccc3Cl)cnc2OC)c2cccc(OC)c2F)cc(OC)n1	-	MIC90	H37Rv	-	-	resazurin	9.8 µM
O=C1CN(c2ccccc2)C(=O)CN1NCNN1CC(=O)N(c2ccccc2)CC1=O	-	MIC bound	H37Rv	-	-	BACTEC	>12.5 µg/mL
c1cc2c(s1)CCOC21CCN(Cc2ccc3c(c2)OCCO3)CC1	MmpL3: Phe255Leu	fold resistance	H37Rv	-	-	fluorescence	≥33.3
Cc1ccc2c(c1)C(=O)C=CC2=O	-	MIC90	H37Rv	-	-	resazurin	3.13 µg/mL
CC1CC(c2ccc3ccccc3c2)NCCNC(c2ccc3ccccc3c2)CC(C)NCCN1	-	inhibition	H37Rv	-	6.25 µg/mL	resazurin	100%
CCCOc1ccc(Cc2cnc(N)nc2N)cc1OC	-	MIC	H37Rv	-	-	-	>111 µM
O=S1(=O)OC(c2cc(Cl)c(O)c(Br)c2)(c2cc(Cl)c(O)c(Br)c2)c2ccccc21	-	MIC bound	H37Rv	-	-	BACTEC	>12.5 µg/mL
C=CCS/C(N)=N/NC(=O)c1ccc(Cl)cc1Cl	-	MIC	H37Rv	-	-	-	>100 µg/mL
O=C1CC2C(CC3OC(=O)C4C3C23COC4(O)C(O)C3)c2occc21	-	inhibition	H37Rv	-	12.5 µg/mL	BACTEC	0%
NNC(=O)c1ccncc1	-	MIC	Pyr-r	-	-	resazurin	50–100 µg/mL
Nc1nc(-c2ccccc2)c(N=Nc2cccc([N+](=O)[O-])c2)s1	-	inhibition	H37Rv	-	6.25 µg/mL	BACTEC	10%
CC(=N\NC(=O)c1ccc([N+](=O)[O-])o1)/C(Cl)=N/Nc1ccc(S(N)(=O)=O)cc1	-	MIC	RCMB 010126	-	-	-	3.9 µg/mL
CCCCS/C(N)=N/NC(=O)c1ccccc1	-	MIC	H37Rv	-	-	-	>100 µg/mL
O=C1/C(=C/c2ccccc2)CN(C(=O)c2ccccc2)C/C1=C\c1ccccc1	-	EC50	H37Rv	-	-	-	>6.25 µg/mL
O=C1C(Cl)=C(NCC2CCCN3CCCCC23)C(=O)c2ccccc21	-	MIC bound	H37Rv	-	-	BACTEC	>12.5 µg/mL
COc1cc(Cc2cnc(N)nc2N)ccc1OCCC(C)C	-	MIC	H37Rv	-	-	-	101 µM
O=C1CC(N2C(=O)C3C4CCC(O4)C3C2=O)C(=O)N1	-	inhibition	H37Rv	-	12.5 µg/mL	BACTEC	13%
COc1c(O)cc2oc3cc(O)cc(O)c3c(=O)c2c1OC	-	MIC	-	-	-	-	10 µg/mL
CC(=O)c1cc(C)cc(C2=CC(=O)c3ccccc3C2=O)n1	-	MIC90	H37Rv	-	-	resazurin	>6.25 µg/mL
COc1cc(O)c2c(=O)c3c(O)cccc3oc2c1	-	MIC	-	-	-	-	40 µg/mL
Cc1cc(N(C)C)nc2cc(N(C)C)ccc12	-	MIC bound	H37Rv	-	-	BACTEC	≤12.5 µg/mL
c1ccc(-c2ccccn2)nc1	-	MIC90	H37Rv	-	-	resazurin / absorbance	160.1 µM
COc1cc(O)c2c(=O)c3cccc(OC)c3oc2c1	-	MIC	-	-	-	-	>200 µg/mL
O=C(NCCCCCCNC(=O)OCOC(=O)NCCCCCCNC(=O)Nc1ccc(SCCO)cc1)Nc1ccc(SCCO)cc1	-	MIC bound	H37Rv	-	-	BACTEC	>12.5 µg/mL
NC1CCN(c2c(F)cc3c(=O)c(C(=O)O)cn(C4CC4)c3c2Cl)C1	-	MIC90	20 strains	-	-	-	1 µg/mL
O=C1/C(=C\c2ccccc2)CN(C(=O)c2ccc(/C=C/C(=O)c3ccc(Cl)c(Cl)c3)cc2)C/C1=C/c1ccccc1	-	inhibition	H37Rv	-	6.25 µg/mL	-	0%
C/C=C(\C)C(=O)N/N=C/c1cccnc1	-	inhibition	H37Rv	-	12.5 µg/mL	BACTEC	16%
CS/C(N)=N/NC(=O)c1ccc([N+](=O)[O-])cc1	-	MIC	H37Rv	-	-	-	>100 µg/mL